Measurements reported in PubChem BioAssay AID1224833 (University of Georgia, 2016).

- Test: 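Human genes whose knock-down alters rotavirus replication in monkey cells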 (primary screen)
- Cell system: monkey MA104 kidney cells
- Knock-down reagent: siRNA pool against human genes, 50 nM
- Timing: 48 h knock-down before infection; read 24 h after infection
- Conditions: infection with rotavirus strain RV3 two days after transfection; infectious dose for this stage not given
- Read-out: 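z-score of rotavirus antigen signal per well, from a fluorescent immunoassay, relative to non-targeting control wells on the same plate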
- Scale: z-score vs non-targeting control: higher = more rotavirus replication than with non-targeting control
- Rule for the call: In these data the active calls have z-score vs non-targeting control at about -1 or lower, or at about 1 or higher
- Meaning of the calls: active = z-score beyond 1 either way; inactive = z-score within 1 of zero
The whole screen tested about 12,000 reagents; this is a part drawn at random. Of all reagents, about 5,600 (46%) are marked active. 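Active calls cover z-scores past 1 in both directions, so they include lowered as well as raised rotavirus replication.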 A number with no mark means an inactive call.

How did the screen score CENPX?
z-score vs non-targeting control: -0.446

With RBMS3, how do the results read?
z-score vs non-targeting control: -0.992

With CCNT1, what does the deposit list?
z-score vs non-targeting control: -1.69 (active)

For PIR, what does the deposit list?
z-score vs non-targeting control: 2.26 (active)

With THUMPD3, what was measured?
z-score vs non-targeting control: -1.44 (active)

Which result is listed for ZFHX4?
z-score vs non-targeting control: -1.5 (active)

Which result is listed for LYZL6?
z-score vs non-targeting control: 0.681

With AMY1A, what was measured?
z-score vs non-targeting control: -0.7

What did the screen give for PTTG1?
z-score vs non-targeting control: -1.01 (active)

For LEAP2, what does the deposit list?
z-score vs non-targeting control: 0.513

For IFNK, what does the deposit list?
z-score vs non-targeting control: 0.257

For SPARC, how do the results read?
z-score vs non-targeting control: 0.0737

With WFDC9, how do the results read?
z-score vs non-targeting control: -1.08 (active)

What did the screen give for EPGN?
z-score vs non-targeting control: 0.218

For KLHDC10, what does the deposit list?
z-score vs non-targeting control: 1.2 (active)

For SBNO2, what does the deposit list?
z-score vs non-targeting control: -1.61 (active)

How did the screen score RRS1?
z-score vs non-targeting control: 1.39 (active)

What did the screen give for IVL?
z-score vs non-targeting control: 0.79

For SRRM1, what was measured?
z-score vs non-targeting control: -2.1 (active)

For ABCB8, what was measured?
z-score vs non-targeting control: -1.19 (active)

With ZSWIM8, how do the results read?
z-score vs non-targeting control: -2.35 (active)

With DOCK1, what does the deposit list?
z-score vs non-targeting control: -0.0856

How did the screen score ECE2?
z-score vs non-targeting control: 1.01 (active)

What is on record for TRIOBP?
z-score vs non-targeting control: 0.923

With MOB4, what does the deposit list?
z-score vs non-targeting control: 0.37

With FGD4, how do the results read?
z-score vs non-targeting control: 0.432

For COL8A2, what was measured?
z-score vs non-targeting control: 0.351

With SLC25A26, how do the results read?
z-score vs non-targeting control: -0.502

Which result is listed for DEFB127?
z-score vs non-targeting control: 1.21 (active)

For NFXL1, what does the deposit list?
z-score vs non-targeting control: 0.848

For PTRH1, what was measured?
z-score vs non-targeting control: 0.655

With SH3D19, how do the results read?
z-score vs non-targeting control: -0.786

Which result is listed for MMD?
z-score vs non-targeting control: -1.98 (active)

For LTBP4, how do the results read?
z-score vs non-targeting control: -0.0721

How did the screen score HBG2?
z-score vs non-targeting control: -1.72 (active)

For OR56A1, what was measured?
z-score vs non-targeting control: 0.454

For A2ML1, what was measured?
z-score vs non-targeting control: 0.681

What did the screen give for ACTN3?
z-score vs non-targeting control: 0.628

With FERMT2, what was measured?
z-score vs non-targeting control: 0.202

With SHC3, what does the deposit list?
z-score vs non-targeting control: 0.139

For TRAF1, what does the deposit list?
z-score vs non-targeting control: -0.0148

What did the screen give for ARPC2?
z-score vs non-targeting control: -0.0889

What did the screen give for GGTLC1?
z-score vs non-targeting control: -0.257

With TOMM70, what does the deposit list?
z-score vs non-targeting control: 0.585

With APOC4, what was measured?
z-score vs non-targeting control: 0.605

With RBP7, what does the deposit list?
z-score vs non-targeting control: -0.988

What did the screen give for RBM39?
z-score vs non-targeting control: -2.52 (active)

What did the screen give for TMEM161B?
z-score vs non-targeting control: -1.3 (active)

With FKBP1B, what was measured?
z-score vs non-targeting control: -0.888

With KRT24, how do the results read?
z-score vs non-targeting control: 1.06 (active)

For SH3BP4, what was measured?
z-score vs non-targeting control: -2.26 (active)

What is on record for ODAPH?
z-score vs non-targeting control: 1.73 (active)

What is on record for EPB41L4B?
z-score vs non-targeting control: -1.15 (active)

For TMEM79, how do the results read?
z-score vs non-targeting control: -0.592

Which result is listed for CHODL?
z-score vs non-targeting control: -0.537

Which result is listed for KIAA0930?
z-score vs non-targeting control: -0.987

With USP4, how do the results read?
z-score vs non-targeting control: 0.851

With CUBN, how do the results read?
z-score vs non-targeting control: -0.712

For EIF4EBP1, what was measured?
z-score vs non-targeting control: -1.11 (active)

How did the screen score MRPL27?
z-score vs non-targeting control: 0.286
